Assay results: US7030150B2, “Benzimidazole compounds and antiviral uses thereof” (Trimeris, Inc., priority 2001, dated 2006)

Test system: RSV
Assay: RSV plaque reduction (PRA) / syncytia formation antiviral assay in Hep2 cells
Type: cell-based, Respiratory Syncytial Virus
Conditions: for Selective Index: ratio CC50/IC50, Tables 1-7; for SI: ratio CC50/IC50, Table 8

Structure (SMILES)	Selective Index	SI
COc1cccc(CNCc2nc3ccccc3n2Cc2nc3ccccc3[nH]2)c1 [compound 134]	244	
O=C(O)C(F)(F)F.O=C(c1ccco1)N1CCN(Cc2ccc3c(c2)nc(CN2CCOCC2)n3Cc2nc3ccccc3[nH]2)CC1 [compound 256]		71
CN(Cc1ccccc1)Cc1ccc2c(c1)nc(CN1CCOCC1)n2Cc1nc2ccccc2[nH]1 [compound 259]		13
c1ccc(-c2ccc(Cn3c(CN4CCCCC4)nc4ccccc43)cc2)cc1 [compound 52]	11.31	
CN(Cc1ccco1)Cc1nc2ccccc2n1Cc1nc2ccccc2[nH]1 [compound 85]	217.4	
CCOC(=O)C1CCN(Cc2nc3ccccc3n2Cc2nc3ccccc3[nH]2)CC1 [compound 203]	175.4	
CCC(CC)NCc1nc2ccccc2n1Cc1nc2ccccc2[nH]1 [compound 140]	132	
c1ccc(Oc2cccc(Cn3c(CN4CCCCC4)nc4ccccc43)c2)cc1 [compound 74]	7	
CSc1ccc(Cn2c(CN(C(C)C)C3CCCCC3)nc3ccccc32)cc1 [compound 14]	19	
c1ccc2[nH]c(Cn3c(CN4CCCC4)nc4ccccc43)nc2c1 [compound 199]	1000	
c1ccc2[nH]c(Cn3c(CNCc4ccc5c(c4)OCO5)nc4ccccc43)nc2c1 [compound 169]	76	
Clc1ccccc1N1CCN(Cc2ccc3c(c2)nc(CN2CCOCC2)n3Cc2nc3ccccc3[nH]2)CC1.O=C(O)C(F)(F)F [compound 255]		47
CN(C)CCCNCc1nc2ccccc2n1Cc1nc2ccccc2[nH]1 [compound 174]	67	
OCCOCCN1CCN(Cc2nc3ccccc3n2Cc2nc3ccccc3[nH]2)CC1 [compound 216]	47	
CN(Cc1nc2ccccc2n1Cc1nc2ccccc2[nH]1)C(c1ccccc1)c1ccccc1 [compound 111]	12.5	
CS(=O)(=O)c1ccc(Cn2c(CN3CCCCC3)nc3ccccc32)cc1 [compound 60]	67	
O=C(O)C(F)(F)F.c1ccc2[nH]c(Cn3c(CN4CCOCC4)nc4cc(CN5CCOCC5)ccc43)nc2c1 [compound 260]		13
Cc1nc(Cn2c(CN(C(C)C)C3CCCCC3)nc3ccccc32)cs1 [compound 2]	21.93	
CCN(CC)CCNCc1nc2ccccc2n1Cc1nc2ccccc2[nH]1 [compound 162]	333	
CN1CCC(N(C)Cc2nc3ccccc3n2Cc2nc3ccccc3[nH]2)CC1 [compound 80]	7.3	
Clc1ccc(CNCc2nc3ccccc3n2Cc2nc3ccccc3[nH]2)cc1Cl [compound 171]	62	
COc1cc2c(cc1OC)C(CC#N)N(Cc1nc3ccccc3n1Cc1nc3ccccc3[nH]1)CC2 (centres unmarked) [compound 223]	24.4	
CC(C)N(Cc1nc2ccccc2n1Cc1nc2ccccc2[nH]1)CC(O)c1ccc(O)c(O)c1 (centres unmarked) [compound 107]	1886.8	
O=C(OCc1ccccc1)N1CCN(Cc2nc3ccccc3n2Cc2nc3ccccc3[nH]2)CC1 [compound 208]	833.3	
COc1cc(Cn2c(CN(C(C)C)C3CCCCC3)nc3ccccc32)cc(OC)c1 [compound 3]	10.96	
FC(F)(F)c1ccccc1CNCc1nc2ccccc2n1Cc1nc2ccccc2[nH]1 [compound 139]	23	
c1ccc2nc(Cn3c(CN4CCCCC4)nc4ccccc43)ccc2c1 [compound 50]	14.04	

Structure (SMILES)	Selective Index	SI
FC(F)(F)c1ccc(N2CCN(Cc3nc4ccccc4n3Cc3nc4ccccc4[nH]3)CC2)nc1 [compound 196]	7600	
CN1CCCC1CCNCc1nc2ccccc2n1Cc1nc2ccccc2[nH]1 (centres unmarked) [compound 172]	136	
CN1CCN(Cc2ccc3c(c2)nc(CN2CCOCC2)n3Cc2nc3ccccc3[nH]2)CC1 [compound 258]		13
COC(=O)CN(C)Cc1nc2ccccc2n1Cc1nc2ccccc2[nH]1 [compound 95]	12.8	
N#CCc1ccc2c(c1)nc(CN1CCOCC1)n2Cc1nc2ccccc2[nH]1 [compound 246]		330
CCCCCCCCN(CCCCCCCC)Cc1ccc2c(c1)nc(CN1CCOCC1)n2Cc1nc2ccccc2[nH]1.O=C(O)C(F)(F)F [compound 244]		1.4
Clc1ccc(Cn2c(CN3CCCCC3)nc3ccccc32)c(Cl)c1 [compound 55]	12.2	
c1ccc2c(c1)nc(CN1CCCCC1)n2Cc1ccncc1 [compound 71]	63	
O=[N+]([O-])c1ccc(Cn2c(CN3CCCCC3)nc3ccccc32)o1 [compound 54]	83	
c1cncc(Cn2c(CN3CCCCC3)nc3ccccc32)c1 [compound 70]	270	
c1ccc2[nH]c(Cn3c(CN4CCOCC4)nc4ccccc43)nc2c1 [compound 195]	10000	
OCC1CCCN(Cc2nc3ccccc3n2Cc2nc3ccccc3[nH]2)C1 (centres unmarked) [compound 211]	152.4	
c1ccc2c(c1)CN(Cc1ccc3c(c1)nc(CN1CCOCC1)n3Cc1nc3ccccc3[nH]1)C2 [compound 254]		600
CC(CCc1ccccc1)NCc1nc2ccccc2n1Cc1nc2ccccc2[nH]1 (centres unmarked) [compound 143]	91	
c1coc(CNCc2nc3ccccc3n2Cc2nc3ccccc3[nH]2)c1 [compound 154]	50	
c1ccc2c(c1)nc(CN1CCCCC1)n2Cc1ccncc1 [compound 58]	77	
CCOCCCNCc1nc2ccccc2n1Cc1nc2ccccc2[nH]1 [compound 159]	204	
CCCN(Cc1nc2ccccc2n1Cc1c2ccccc2nc2ccccc12)CC1CC1 [compound 23]	56	
c1ccc2[nH]c(Cn3c(CN4CCC(N5CCCC5)CC4)nc4ccccc43)nc2c1 [compound 228]	46.2	
c1ccc2[nH]c(Cn3c(CN4CCC4)nc4ccccc43)nc2c1 [compound 200]	54.3	
c1ccc(CCCCNCc2nc3ccccc3n2Cc2nc3ccccc3[nH]2)cc1 [compound 118]	594	
COCCN(C)Cc1ccc2c(c1)nc(CN1CCOCC1)n2Cc1nc2ccccc2[nH]1 [compound 251]		13
CNCc1nc2ccccc2n1Cc1nc2ccccc2[nH]1 [compound 164]	125	
COc1ccccc1CCNCc1nc2ccccc2n1Cc1nc2ccccc2[nH]1 [compound 175]	278	
c1ccc(CC2=NCCN2Cc2nc3ccccc3n2Cc2nc3ccccc3[nH]2)cc1 [compound 204]	58.8	
c1ccc(CCNCc2nc3ccccc3n2Cc2nc3ccccc3[nH]2)nc1 [compound 125]	323	
